A mixed list of measured activities; the numbers were collected in NIAID ChemDB.

Shared fields: tests in culture; species: HIV-1; read by: cytopathic effect / MTT; measure: EC50

ECn: concentration that inhibits the pathogen or its effect by n%. Rows are shuffled and stem from different studies. An empty or dashed field is not shown.

Cc1ccnc2c1NC(=O)c1cccnc1N2C1CC1 ; changes: RT-K103R V179D P225H ; cells: MT-4 ; value: >30 µM
CCCCNC(=O)Oc1nsnc1-c1c(Cl)cccc1Cl ; strain: IIIB ; cells: MT-4 ; value: >139 µM
Cc1ccc2c(c1)C(=Nc1ccc(S(=O)(=O)Nc3nc(C)cc(C)n3)cc1)C(=O)N2 ; strain: IIIB ; cells: MT-4 ; value: 8.1 µg/mL
NCCCC[C@@H](NC(=O)[C@H](Cc1ccc2ccccc2c1)NC(=O)[C@H](CCCN=C(N)N)NC(=O)[C@@H](N)CCCN=C(N)N)C(=O)N1CCC[C@H]1C(=O)N[C@@H](CCCN=C(N)N)C(=O)O ; strain: IIIB ; cells: MT-4 ; value: >100 µM
CC(=O)Oc1cc(OC(C)=O)c(OC(C)=O)c(=O)c(OC(C)=O)c1 ; strain: IIIB ; cells: MT-4 ; value: >6 µM
Nc1nc(NC2CC2)c2ncn([C@H]3C=C[C@@H](CO)C3)c2n1 ; changes: RT-Q151M A62V ; cells: MT-2 ; value: 7 µM
NC(=O)CN1C(=O)N(Cc2ccccc2)c2cscc2S1(=O)=O ; strain: IIIB ; cells: MT-4 ; value: >355.7 µM
Cc1cn([C@H]2C[C@H](N=[N+]=[N-])[C@@H](COP(=O)(OCCSC(=O)C(C)(C)C)OCCSC(=O)C(C)(C)C)O2)c(=O)[nH]c1=O ; strain: LAI ; cells: CEM + CEM-SS ; value: 0.015 µM
CC(C)CN(C[C@@H](O)[C@H](Cc1ccccc1)NC(=O)O[C@H]1CO[C@H]2OCC[C@H]21)S(=O)(=O)c1cccc(N)c1 ; strain: PI-resistant (PR L10I M46I A71V I84V) M1 ; changes: PR-L10I M46I A71V I84V ; cells: MT-4 ; value: 0.1514 µM
O=C(O)P(=O)(O)O ; strain: LAI viral clone (RT-E89G) ; changes: RT-E89G ; cells: MT-2 ; value: 399 µM
Cc1c(OC(=O)CCCCO[C@H]2O[C@H](CO)[C@@H](O)[C@H](O)[C@@H]2O)cccc1C(=O)N[C@@H](CSc1ccccc1)[C@H](O)CN1C[C@H]2CCCC[C@H]2C[C@H]1C(=O)NC(C)(C)C ; strain: IIIB ; cells: MT-4 ; value: 0.24 µM
CCOC(=O)[C@H](Cc1ccccc1)NC(=O)[C@@H](O)[C@H](O)C(=O)N[C@@H](Cc1ccccc1)C(=O)OCC ; strain: Z2Z6 ; cells: PM1 ; value: >100 µM
Cc1c(OC(=O)CCCCOc2ccc(C[C@H](N)C(=O)O)cc2)cccc1C(=O)N[C@@H](CSc1ccccc1)[C@H](O)CN1C[C@H]2CCCC[C@H]2C[C@H]1C(=O)NC(C)(C)C ; strain: IIIB ; cells: MT-4 ; value: 0.193 µM
O=C1Nc2cscc2S(=O)(=O)N1c1ccc(Cl)cc1 ; strain: IIIB ; cells: MT-4 ; value: >266.5 µM
CCOC(=O)[C@@H](NC(=O)[C@@H](O)[C@H](O)C(=O)N[C@H](C(=O)OCC)C(C)C)C(C)C ; strain: Z2Z6 ; cells: PM1 ; value: >100 µM
Cc1ccnc2c1NC(=O)c1cccnc1N2C1CC1 ; strain: IIIB ; cells: MT-4 ; value: 0.03 µM
Cc1cn([C@H]2C[C@H](N=[N+]=[N-])[C@@H](COP(=O)(OCCCCCCCCN(C)CCN(C)C)OC[C@H]3OC(O)[C@H](O)[C@@H](O)[C@@H]3O)O2)c(=O)[nH]c1=O ; strain: LAI ; cells: CEM + CEM-4 ; value: 0.07 µM
CC(=O)Nc1cccc(-c2ccc(=O)c(O)c(O)c2O)c1 ; strain: IIIB ; cells: MT-4 ; value: >8 µM
Cc1cn([C@H]2C[C@H](N=[N+]=[N-])[C@@H](CO)O2)c(=O)[nH]c1=O ; strain: IIIB ; cells: MT-4 ; value: 0.0012 µg/mL
COc1ccc(CN2C(=O)Nc3cscc3S2(=O)=O)c(OC)c1 ; strain: IIIB ; cells: MT-4 ; value: >705.4 µM
CC(=O)O[C@H](C(=O)NCc1ccccc1)[C@H](OC(C)=O)C(=O)NCc1ccccc1 ; strain: Z2Z6 ; cells: PM1 ; value: >100 µM
O=c1cccc(O)c(O)c1O ; strain: IIIB ; cells: MT-4 ; value: >3 µM
CN(C)C(=O)Oc1nsnc1-c1ccc(Cl)cc1 ; strain: IIIB ; cells: MT-4 ; value: >353 µM
O=C(CN1CCN(c2ccccc2)CC1)OC[C@@H]1CC[C@H](n2cnc3c(=O)[nH]cnc32)O1 ; strain: IIIB ; cells: MT-4 ; value: 1.28 µM
CCN1C(=O)N(Cc2ccc(OC)cc2OC)S(=O)(=O)c2cscc21 ; strain: IIIB ; cells: MT-4 ; value: >255.2 µM
O=c1[nH]cnc2c1ncn2[C@H]1CC[C@@H](CO)O1 ; strain: IIIB ; cells: MT-4 ; value: 4.8 µM
Cc1cn([C@H]2C[C@H](N=[N+]=[N-])[C@@H](CO)O2)c(=O)[nH]c1=O ; strain: IIIB ; cells: MT-4 ; value: 0.01 µM
CC(C)(C)NC(=O)[C@@H]1C[C@@H]2CCCC[C@@H]2CN1C[C@@H](OC(=O)CCCCO[C@@H]1[C@@H](O)[C@@H](O)O[C@H](CO)[C@H]1O)[C@H](Cc1ccccc1)NC(=O)[C@H](CC(N)=O)NC(=O)c1ccc2ccccc2n1 ; strain: IIIB ; cells: MT-4 ; value: 0.062 µM
Cc1cn([C@H]2C[C@H](N=[N+]=[N-])[C@@H](CO)O2)c(=O)[nH]c1=O ; strain: IIIB ; cells: MT-4 ; value: 0.079 µM
Cc1cn([C@H]2C[C@H](N=[N+]=[N-])[C@@H](CO)O2)c(=O)[nH]c1=O ; strain: LAI ; cells: MT-2 ; value: 0.1 µM
Cc1cn([C@H]2C[C@H](N=[N+]=[N-])[C@@H](COP(=O)(OCCSC(=O)C(C)(C)O)OCCSC(=O)C(C)(C)O)O2)c(=O)[nH]c1=O ; strain: IIIB ; cells: MT-4 ; value: 0.041 µM
COc1ccc(N2CCN(CC(=O)OC[C@@H]3CC[C@H](n4cnc5c(=O)[nH]cnc54)O3)CC2)cc1 ; strain: IIIB ; cells: MT-4 ; value: 1.87 µM
CC(C)(C)NC(=O)[C@@H]1C[C@@H]2CCCC[C@@H]2CN1C[C@@H](OC(=O)CCCCO[C@H]1O[C@H](CO)[C@@H](O)[C@H](O)[C@@H]1O)[C@H](Cc1ccccc1)NC(=O)[C@H](CC(N)=O)NC(=O)c1ccc2ccccc2n1 ; strain: IIIB ; cells: MT-4 ; value: 2.165 µM
CN(C)C(=O)Oc1nsnc1-c1c(Cl)cccc1Cl ; strain: IIIB-R (RT-Y181C) ; changes: RT-Y181C ; cells: MT-4 ; value: >190 µM
NC(N)=NCCC[C@H](NC(=O)[C@@H]1CCCN1C(=O)[C@@H](Cc1ccc(O)cc1)NC(=O)[C@H](Cc1ccc2ccccc2c1)NC(=O)[C@H](CCCN=C(N)N)NC(=O)[C@@H](N)CCCN=C(N)N)C(=O)O ; strain: IIIB ; cells: MT-4 ; value: 65 µM
CCCN(C)C(=O)Oc1nsnc1-c1c(Cl)cccc1Cl ; strain: IIIB-R (RT-Y181C) ; changes: RT-Y181C ; cells: MT-4 ; value: 2.6 µM
Cc1cn([C@H]2C[C@H](N=[N+]=[N-])[C@@H](CO)O2)c(=O)[nH]c1=O ; strain: KELL ; cells: CEM + CEM-SS ; value: 0.007 µM
Nc1ccn([C@H]2CC[C@@H](CO)O2)c(=O)n1 ; strain: IIIB ; cells: MT-4 ; value: 0.3 µg/mL
CCOC(=O)[C@H](C)NC(=O)[C@@H](O)[C@H](O)C(=O)N[C@@H](C)C(=O)OCC ; strain: Z2Z6 ; cells: PM1 ; value: >100 µM
CN(C)C(=O)Oc1nsnc1-c1cccc(Cl)c1Cl ; strain: IIIB-R (RT-Y181C) ; changes: RT-Y181C ; cells: MT-4 ; value: >127 µM
Cc1cn([C@H]2C=C[C@@H](CO)O2)c(=O)[nH]c1=O ; strain: LAI WT ; cells: MT-2 ; value: 5.6 µM
NCCCC[C@@H](NC(=O)[C@H](Cc1ccc2ccccc2c1)NC(=O)[C@H](CCCN=C(N)N)NC(=O)[C@@H](N)CCCN=C(N)N)C(=O)N1CCC[C@H]1C(=O)N[C@@H](Cc1ccc(O)cc1)C(=O)N[C@@H](CCCN=C(N)N)C(=O)O ; strain: IIIB ; cells: MT-4 ; value: >100 µM
Cc1cc(C)nc(NS(=O)(=O)c2ccc(N=C3C(=O)Nc4ccc(Br)cc43)cc2)n1 ; strain: IIIB ; cells: MT-4 ; value: 15.3 µg/mL
CN1C(=O)N(c2cccc(Cl)c2)S(=O)(=O)c2cscc21 ; strain: IIIB ; cells: MT-4 ; value: >483.6 µM

Repeating the first 6 entries:

SMILES | strain | changes | cells | value
Cc1ccnc2c1NC(=O)c1cccnc1N2C1CC1 |  | RT-K103R V179D P225H | MT-4 | >30 µM
CCCCNC(=O)Oc1nsnc1-c1c(Cl)cccc1Cl | IIIB |  | MT-4 | >139 µM
Cc1ccc2c(c1)C(=Nc1ccc(S(=O)(=O)Nc3nc(C)cc(C)n3)cc1)C(=O)N2 | IIIB |  | MT-4 | 8.1 µg/mL
NCCCC[C@@H](NC(=O)[C@H](Cc1ccc2ccccc2c1)NC(=O)[C@H](CCCN=C(N)N)NC(=O)[C@@H](N)CCCN=C(N)N)C(=O)N1CCC[C@H]1C(=O)N[C@@H](CCCN=C(N)N)C(=O)O | IIIB |  | MT-4 | >100 µM
CC(=O)Oc1cc(OC(C)=O)c(OC(C)=O)c(=O)c(OC(C)=O)c1 | IIIB |  | MT-4 | >6 µM
Nc1nc(NC2CC2)c2ncn([C@H]3C=C[C@@H](CO)C3)c2n1 |  | RT-Q151M A62V | MT-2 | 7 µM